Data on 15 compounds can be found in PMC9506549, “µ-Conotoxins Targeting the Human Voltage-Gated Sodium Channel Subtype NaV1.7” (2022).

Protein sequences, listed by entry. Tags and fused reporters are not part of them.
UniProt Q15858, whole entry, looked up: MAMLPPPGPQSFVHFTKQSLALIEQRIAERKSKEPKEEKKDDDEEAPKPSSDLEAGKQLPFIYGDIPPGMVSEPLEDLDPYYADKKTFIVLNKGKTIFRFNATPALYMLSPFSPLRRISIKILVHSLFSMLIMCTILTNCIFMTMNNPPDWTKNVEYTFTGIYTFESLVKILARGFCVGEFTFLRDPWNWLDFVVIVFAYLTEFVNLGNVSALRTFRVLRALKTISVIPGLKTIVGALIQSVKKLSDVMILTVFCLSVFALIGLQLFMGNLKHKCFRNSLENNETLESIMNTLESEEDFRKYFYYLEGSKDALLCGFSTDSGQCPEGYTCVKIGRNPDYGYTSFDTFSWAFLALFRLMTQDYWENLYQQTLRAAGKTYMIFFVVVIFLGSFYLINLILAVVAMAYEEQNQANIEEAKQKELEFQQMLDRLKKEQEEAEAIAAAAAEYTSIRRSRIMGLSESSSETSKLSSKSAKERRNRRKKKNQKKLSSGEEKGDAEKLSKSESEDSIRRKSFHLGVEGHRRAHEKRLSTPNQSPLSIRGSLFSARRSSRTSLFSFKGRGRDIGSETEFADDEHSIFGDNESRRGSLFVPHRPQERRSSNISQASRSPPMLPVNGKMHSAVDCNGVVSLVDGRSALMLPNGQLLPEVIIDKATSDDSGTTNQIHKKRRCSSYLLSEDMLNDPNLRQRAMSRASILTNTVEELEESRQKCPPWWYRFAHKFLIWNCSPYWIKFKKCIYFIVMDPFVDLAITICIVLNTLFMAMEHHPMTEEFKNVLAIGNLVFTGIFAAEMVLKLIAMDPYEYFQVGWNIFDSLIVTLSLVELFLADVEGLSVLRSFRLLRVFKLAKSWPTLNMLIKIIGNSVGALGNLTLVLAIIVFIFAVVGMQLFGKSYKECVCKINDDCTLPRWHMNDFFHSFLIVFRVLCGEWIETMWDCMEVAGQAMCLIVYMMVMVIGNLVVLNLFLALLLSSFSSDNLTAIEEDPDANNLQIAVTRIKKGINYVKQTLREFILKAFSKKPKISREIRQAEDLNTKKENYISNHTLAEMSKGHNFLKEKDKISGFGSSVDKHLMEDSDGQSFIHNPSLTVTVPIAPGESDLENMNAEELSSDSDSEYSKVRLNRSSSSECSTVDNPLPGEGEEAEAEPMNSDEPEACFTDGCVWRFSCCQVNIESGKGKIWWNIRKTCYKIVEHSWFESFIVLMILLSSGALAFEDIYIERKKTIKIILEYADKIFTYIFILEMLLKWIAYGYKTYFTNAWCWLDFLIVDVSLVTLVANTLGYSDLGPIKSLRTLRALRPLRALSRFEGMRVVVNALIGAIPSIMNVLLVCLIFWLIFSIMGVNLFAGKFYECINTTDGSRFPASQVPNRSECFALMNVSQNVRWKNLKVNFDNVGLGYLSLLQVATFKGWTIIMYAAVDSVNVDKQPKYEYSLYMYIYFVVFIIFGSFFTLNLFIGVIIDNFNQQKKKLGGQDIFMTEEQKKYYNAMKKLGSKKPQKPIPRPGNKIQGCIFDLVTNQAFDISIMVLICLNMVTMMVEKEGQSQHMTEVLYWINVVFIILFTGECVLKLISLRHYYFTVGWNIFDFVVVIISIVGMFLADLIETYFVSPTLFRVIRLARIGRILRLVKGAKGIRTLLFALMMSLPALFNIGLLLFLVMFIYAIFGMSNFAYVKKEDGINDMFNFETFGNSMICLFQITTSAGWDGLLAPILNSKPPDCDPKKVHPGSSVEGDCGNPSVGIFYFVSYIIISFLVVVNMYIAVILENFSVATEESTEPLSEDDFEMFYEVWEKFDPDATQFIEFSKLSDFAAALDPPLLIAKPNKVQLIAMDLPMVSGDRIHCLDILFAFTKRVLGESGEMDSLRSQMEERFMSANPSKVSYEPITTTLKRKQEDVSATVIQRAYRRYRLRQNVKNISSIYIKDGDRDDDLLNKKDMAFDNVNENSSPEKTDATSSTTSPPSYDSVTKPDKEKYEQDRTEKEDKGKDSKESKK

Bounds are passed on as bounds.

One test concerns the target hNaV1.7 (Homo sapiens, UniProt Q15858). Nature of the test: Automated whole-cell patch-clamp electrophysiology, hNaV1.7/β1 in HEK293 cells. The note with it: Yes/No summary, Table 2. (The patch-clamp technique gives a direct electrical read-out from membranes.)
With `C[C@@H]1NC(=O)[C@H](Cc2c[nH]cn2)NC(=O)[C@H](CC(=O)O)NC(=O)[C@H](CCCNC(=N)N)NC(=O)[C@@H]2CSSC[C@H](NC(=O)CN)C(=O)N[C@H]3CSSC[C@H](NC(=O)[C@H](CCCNC(=N)N)NC1=O)C(=O)N[C@H](C(N)=O)CSSC[C@H](NC(=O)CNC(=O)[C@H](CCCCN)NC(=O)[C@@H]1CCCN1C(=O)CNC(=O)[C@H](CC(N)=O)NC3=O)C(=O)N[C@@H](CO)C(=O)N[C@@H](CO)C(=O)N[C@@H](CCCCN)C(=O)N[C@@H](Cc1c[nH]c3ccccc13)C(=O)N2`, the “Inhibitory Potency at hNaV1.7” value is given as “Yes”.

The test is the same for the next values; noted with them: read-out: IC50 hNaV1.7; analogue and extended µ-conotoxin series (Table 3, Figures 2 and 6); automated whole-cell patch-clamp, HEK293 hNaV1.7/β1, 5 min per concentration, 22 °C; mean ± SEM, n = 3–4 cells.
For `C[C@@H]1NC(=O)[C@H](C)NC(=O)[C@H](Cc2c[nH]cn2)NC(=O)[C@H](CC(=O)O)NC(=O)[C@H](Cc2c[nH]cn2)NC(=O)[C@@H]2CSSC[C@H](NC(=O)CNC(=O)[C@@H](N)CCCNC(=N)N)C(=O)N[C@H]3CSSC[C@H](NC1=O)C(=O)N[C@H](C(N)=O)CSSC[C@H](NC(=O)CNC(=O)CNC(=O)[C@H](CCCNC(=N)N)NC(=O)CNC(=O)[C@H](CC(N)=O)NC3=O)C(=O)N[C@@H](CO)C(=O)N[C@@H](CO)C(=O)N[C@@H](CCCNC(=N)N)C(=O)N[C@@H](Cc1c[nH]c3ccccc13)C(=O)N2`, the IC50 came to 889 nM. The same measure, in the same setting: for `C[C@@H]1NC(=O)[C@H](Cc2c[nH]cn2)NC(=O)[C@H](CC(=O)O)NC(=O)[C@H](CCCNC(=N)N)NC(=O)[C@@H]2CSSC[C@H](NC(=O)CNC(=O)[C@@H](N)CCCNC(=N)N)C(=O)N[C@H]3CSSC[C@H](NC(=O)[C@H](CCCNC(=N)N)NC1=O)C(=O)N[C@H](C(N)=O)CSSC[C@H](NC(=O)[C@H](CC(N)=O)NC3=O)C(=O)N[C@@H](CO)C(=O)N[C@@H](CO)C(=O)N[C@@H](CCCNC(=N)N)C(=O)N[C@@H](Cc1c[nH]c3ccccc13)C(=O)N2` the value was 318 nM; for `C[C@@H]1NC(=O)[C@H](Cc2c[nH]cn2)NC(=O)[C@H](CC(=O)O)NC(=O)[C@H](C)NC(=O)[C@@H]2CSSC[C@H](NC(=O)CNC(=O)[C@@H](N)CCCNC(=N)N)C(=O)N[C@H]3CSSC[C@H](NC(=O)[C@H](CCCNC(=N)N)NC1=O)C(=O)N[C@H](C(N)=O)CSSC[C@H](NC(=O)CNC(=O)CNC(=O)[C@H](CCCNC(=N)N)NC(=O)CNC(=O)[C@H](CC(N)=O)NC3=O)C(=O)N[C@@H](CO)C(=O)N[C@@H](CO)C(=O)N[C@@H](CCCNC(=N)N)C(=O)N[C@@H](Cc1c[nH]c3ccccc13)C(=O)N2`, 334 nM. Regarding `C[C@@H]1NC(=O)[C@H](Cc2c[nH]cn2)NC(=O)[C@H](CC(=O)O)NC(=O)[C@H](CCC(N)=O)NC(=O)[C@@H]2CSSC[C@H](NC(=O)CNC(=O)[C@@H](N)CCCNC(=N)N)C(=O)N[C@H]3CSSC[C@H](NC(=O)[C@H](CCCNC(=N)N)NC1=O)C(=O)N[C@H](C(N)=O)CSSC[C@H](NC(=O)CNC(=O)CNC(=O)[C@H](CCCNC(=N)N)NC(=O)CNC(=O)[C@H](CC(N)=O)NC3=O)C(=O)N[C@@H](CO)C(=O)N[C@@H](CO)C(=O)N[C@@H](CCCNC(=N)N)C(=O)N[C@@H](Cc1c[nH]c3ccccc13)C(=O)N2`, the IC50 is 151 nM. For `C[C@@H]1NC(=O)[C@H](C)NC(=O)[C@H](Cc2c[nH]cn2)NC(=O)[C@H](CC(=O)O)NC(=O)[C@H](CCCNC(=N)N)NC(=O)[C@@H]2CSSC[C@H](NC(=O)CNC(=O)[C@@H](N)CCCNC(=N)N)C(=O)N[C@H]3CSSC[C@H](NC1=O)C(=O)N[C@H](C(N)=O)CSSC[C@H](NC(=O)CNC(=O)CNC(=O)[C@H](CCCNC(=N)N)NC(=O)CNC(=O)[C@H](CC(N)=O)NC3=O)C(=O)N[C@@H](CO)C(=O)N[C@@H](CO)C(=O)N[C@@H](CCCNC(=N)N)C(=O)N[C@@H](Cc1c[nH]c3ccccc13)C(=O)N2`, the IC50 is 142 nM.

For the compound `C[C@@H]1NC(=O)[C@H](C)NC(=O)[C@H](Cc2c[nH]cn2)NC(=O)[C@H](CC(=O)O)NC(=O)[C@H](Cc2c[nH]cn2)NC(=O)[C@@H]2CSSC[C@H](N)C(=O)N[C@H]3CSSC[C@H](NC1=O)C(=O)N[C@H](C(N)=O)CSSC[C@H](NC(=O)CNC(=O)CNC(=O)[C@H](CCCNC(=N)N)NC(=O)CNC(=O)[C@H](CC(N)=O)NC3=O)C(=O)N[C@@H](CO)C(=O)N[C@@H](CO)C(=O)N[C@@H](CCCNC(=N)N)C(=O)N[C@@H](Cc1c[nH]c3ccccc13)C(=O)N2`, the IC50 was greater than 1000 nM. Same read-out and setting: for `C[C@@H]1NC(=O)[C@H](Cc2c[nH]cn2)NC(=O)[C@H](CC(=O)O)NC(=O)[C@H](CCCNC(=N)N)NC(=O)[C@@H]2CSSC[C@H](NC(=O)CN)C(=O)N[C@H]3CSSC[C@H](NC(=O)[C@H](CCCNC(=N)N)NC1=O)C(=O)N[C@H](C(N)=O)CSSC[C@H](NC(=O)CNC(=O)[C@H](CCCCN)NC(=O)[C@@H]1CCCN1C(=O)CNC(=O)[C@H](CC(N)=O)NC3=O)C(=O)N[C@@H](CO)C(=O)N[C@@H](CO)C(=O)N[C@@H](CCCCN)C(=O)N[C@@H](Cc1c[nH]c3ccccc13)C(=O)N2` the value was 546 nM; for `C[C@@H]1NC(=O)[C@H](Cc2c[nH]cn2)NC(=O)[C@H](CC(=O)O)NC(=O)[C@H](Cc2c[nH]cn2)NC(=O)[C@@H]2CSSC[C@H](NC(=O)CNC(=O)[C@@H](N)CCCNC(=N)N)C(=O)N[C@H]3CSSC[C@H](NC(=O)[C@H](CCCNC(=N)N)NC1=O)C(=O)N[C@H](C(N)=O)CSSC[C@H](NC(=O)CNC(=O)CNC(=O)[C@H](CCCNC(=N)N)NC(=O)CNC(=O)[C@H](CC(N)=O)NC3=O)C(=O)N[C@@H](CO)C(=O)N[C@@H](CO)C(=O)N[C@@H](CCCNC(=N)N)C(=O)N[C@@H](Cc1c[nH]c3ccccc13)C(=O)N2`, 66.5 nM.

Turning to `C[C@@H]1NC(=O)[C@H](Cc2c[nH]cn2)NC(=O)[C@H](CC(=O)O)NC(=O)[C@H](CCCNC(=N)N)NC(=O)[C@@H]2CSSC[C@H](NC(=O)CNC(=O)[C@@H](N)CCCNC(=N)N)C(=O)N[C@H]3CSSC[C@H](NC(=O)[C@H](CCCNC(=N)N)NC1=O)C(=O)N[C@H](C(N)=O)CSSC[C@H](NC(=O)CNC(=O)[C@H](CCCNC(=N)N)NC(=O)[C@H](CCCNC(=N)N)NC(=O)CNC(=O)[C@H](CC(N)=O)NC3=O)C(=O)N[C@@H](CO)C(=O)N[C@@H](CO)C(=O)N[C@@H](CCCNC(=N)N)C(=O)N[C@@H](Cc1c[nH]c3ccccc13)C(=O)N2`, the IC50 turned out to be 156 nM. Still for that read-out and setting: for `C[C@@H]1NC(=O)[C@H](Cc2c[nH]cn2)NC(=O)[C@H](CC(=O)O)NC(=O)[C@H](CCCNC(=N)N)NC(=O)[C@@H]2CSSC[C@H](N)C(=O)N[C@H]3CSSC[C@H](NC(=O)[C@H](CCCNC(=N)N)NC1=O)C(=O)N[C@H](C(N)=O)CSSC[C@H](NC(=O)CNC(=O)CNC(=O)[C@H](CCCNC(=N)N)NC(=O)CNC(=O)[C@H](CC(N)=O)NC3=O)C(=O)N[C@@H](CO)C(=O)N[C@@H](CO)C(=O)N[C@@H](CCCNC(=N)N)C(=O)N[C@@H](Cc1c[nH]c3ccccc13)C(=O)N2` the value was 106 nM.

For `C[C@@H]1NC(=O)[C@H](C)NC(=O)[C@H](Cc2c[nH]cn2)NC(=O)[C@H](CC(=O)O)NC(=O)[C@H](CCCNC(=N)N)NC(=O)[C@@H]2CSSC[C@H](N)C(=O)N[C@H]3CSSC[C@H](NC1=O)C(=O)N[C@H](C(N)=O)CSSC[C@H](NC(=O)CNC(=O)CNC(=O)[C@H](CCCNC(=N)N)NC(=O)CNC(=O)[C@H](CC(N)=O)NC3=O)C(=O)N[C@@H](CO)C(=O)N[C@@H](CO)C(=O)N[C@@H](CCCNC(=N)N)C(=O)N[C@@H](Cc1c[nH]c3ccccc13)C(=O)N2`, the IC50 amounted to 482 nM.

With `C[C@@H]1NC(=O)[C@H](Cc2c[nH]cn2)NC(=O)[C@H](CC(=O)O)NC(=O)[C@H](CCCNC(=N)N)NC(=O)[C@@H]2CSSC[C@H](NC(=O)CNC(=O)[C@@H](N)CCCNC(=N)N)C(=O)N[C@H]3CSSC[C@H](NC(=O)[C@H](CCCNC(=N)N)NC1=O)C(=O)N[C@H](C(N)=O)CSSC[C@H](NC(=O)CNC(=O)CNC(=O)[C@H](CC(N)=O)NC3=O)C(=O)N[C@@H](CO)C(=O)N[C@@H](CO)C(=O)N[C@@H](CCCNC(=N)N)C(=O)N[C@@H](Cc1c[nH]c3ccccc13)C(=O)N2`, the IC50 amounted to 314 nM. Consider `N=C(N)NCCC[C@@H]1NC(=O)CNC(=O)[C@H](CC(N)=O)NC(=O)[C@@H]2CSSC[C@@H]3NC(=O)[C@H](Cc4c[nH]c5ccccc45)NC(=O)[C@H](CCCCN)NC(=O)[C@H](CO)NC(=O)[C@H](CO)NC(=O)[C@H](CSSC[C@@H](C(N)=O)NC(=O)[C@H](CSSC[C@H](N)C(=O)N2)NC(=O)[C@H](CCCNC(=N)N)NC(=O)[C@H](CO)NC(=O)[C@H](Cc2c[nH]cn2)NC(=O)[C@H](CC(=O)O)NC(=O)[C@H](CCCNC(=N)N)NC3=O)NC(=O)CNC(=O)CNC1=O`, for which the IC50 was 305 nM. Same read-out and setting: for `C[C@@H]1NC(=O)[C@H](Cc2c[nH]cn2)NC(=O)[C@H](CC(=O)O)NC(=O)[C@H](Cc2c[nH]cn2)NC(=O)[C@@H]2CSSC[C@H](N)C(=O)N[C@H]3CSSC[C@H](NC(=O)[C@H](CCCNC(=N)N)NC1=O)C(=O)N[C@H](C(N)=O)CSSC[C@H](NC(=O)CNC(=O)CNC(=O)[C@H](CCCNC(=N)N)NC(=O)CNC(=O)[C@H](CC(N)=O)NC3=O)C(=O)N[C@@H](CO)C(=O)N[C@@H](CO)C(=O)N[C@@H](CCCNC(=N)N)C(=O)N[C@@H](Cc1c[nH]c3ccccc13)C(=O)N2` the value was 667 nM; for `C[C@@H]1NC(=O)[C@H](Cc2c[nH]cn2)NC(=O)[C@H](C)NC(=O)[C@H](CCCNC(=N)N)NC(=O)[C@@H]2CSSC[C@H](NC(=O)CNC(=O)[C@@H](N)CCCNC(=N)N)C(=O)N[C@H]3CSSC[C@H](NC(=O)[C@H](CCCNC(=N)N)NC1=O)C(=O)N[C@H](C(N)=O)CSSC[C@H](NC(=O)CNC(=O)CNC(=O)[C@H](CCCNC(=N)N)NC(=O)CNC(=O)[C@H](CC(N)=O)NC3=O)C(=O)N[C@@H](CO)C(=O)N[C@@H](CO)C(=O)N[C@@H](CCCNC(=N)N)C(=O)N[C@@H](Cc1c[nH]c3ccccc13)C(=O)N2`, 124 nM.

The same test, now with this note: ↓ fold-decrease, ↑ fold-increase in potency compared to SxIIIC; ns no significant difference; listed as [R16H; R20A]SxIIIC.
On to `C[C@@H]1NC(=O)[C@H](C)NC(=O)[C@H](Cc2c[nH]cn2)NC(=O)[C@H](CC(=O)O)NC(=O)[C@H](Cc2c[nH]cn2)NC(=O)[C@@H]2CSSC[C@H](NC(=O)CNC(=O)[C@@H](N)CCCNC(=N)N)C(=O)N[C@H]3CSSC[C@H](NC1=O)C(=O)N[C@H](C(N)=O)CSSC[C@H](NC(=O)CNC(=O)CNC(=O)[C@H](CCCNC(=N)N)NC(=O)CNC(=O)[C@H](CC(N)=O)NC3=O)C(=O)N[C@@H](CO)C(=O)N[C@@H](CO)C(=O)N[C@@H](CCCNC(=N)N)C(=O)N[C@@H](Cc1c[nH]c3ccccc13)C(=O)N2`, for which the “Fold Difference to SxIIIC (hNaV1.7)” value is 6 fold.

Broadly, the IC50 is the concentration needed to halve the response being measured.
